Anti-infective test results gathered from many reports (values: NIAID ChemDB through PubChem).

Common to all: tests in culture; species: HIV-1; read by: syncytia; endpoint: EC50

An empty or dashed field is not shown. Rows are shuffled and stem from different studies. ECn: concentration that inhibits the pathogen or its effect by n%.

structure,mutations,strain,cell line,result
CCCCCCCCCC[N+](C)(C)CCCNCc1c(O)cc2c(c1O)-c1cc(ccc1O)[C@H]1NC(=O)[C@@H]3NC(=O)C4NC(=O)[C@@H](Cc5ccc(c(Cl)c5)Oc5cc3cc(c5O)Oc3ccc(cc3Cl)[C@@H](O)[C@H](NC1=O)C(=O)N[C@@H]2C(=O)O)NC(=O)[C@H](N)c1ccc(O)c(c1)Oc1cc(O)cc4c1,-,IIIB,CEM,2.8 µM
CC1=C(C(=O)Nc2ccc(Cl)c(C(=O)OCC3CCC3)c2)SCCO1,RT-E138K,TSAO-resistant (RT E138K),CEM,4.5 µg/mL
C=C(C)[C@@H]1CC[C@]2(C(=O)NCCCCCCCC(=O)N[C@@H](CC(C)C)[C@@H](O)CC(=O)O)CC[C@]3(C)[C@H](CC[C@@H]4[C@@]5(C)CC[C@H](O)C(C)(C)[C@@H]5CC[C@]43C)[C@@H]12,GP41-A101S,LAI,HeLa P4 + HeLa,<10 µM
CC(=O)COc1cc(NC(=S)OC(C)C)ccc1Cl,-,IIIB,CEM,1.658 µM
CCSCC1=C(C(=O)Nc2ccc(Cl)c(C(=O)OC(C)C)c2)SCCO1,RT-V106A,Nevirapine-resistant (RT V106A),CEM,8.5 µg/mL
Cc1occc1C(=S)Nc1ccc(Cl)c(OC(=O)OC(C)C)c1,RT-Y188L,-,CEM,>6 µM
Cc1cc(C)c(CS(=O)c2cccc[n+]2[O-])c(C)c1,-,IIIB,CEM/MOLT-4 + CEM,>20 µg/mL
C#CCOC(=O)c1cc(NC(=S)OC(C)C)ccc1Cl,RT-E138K,-,CEM,19.24 µM
CC1=C(C(=O)Nc2ccc(Cl)c(C(=O)OC(C)C)c2)SCCO1,RT-V179D,IIIB,CEM,0.94 µM
CC1=C(C(=O)Nc2ccc(Cl)c(C(=O)OC3CCCCC3)c2)SCCO1,RT-Y181C,PYR-resistant (RT Y181C),CEM,0.5 µg/mL
CCc1c(Sc2cc(C)cc(C)c2)n(COCc2ccccc2)c(=S)[nH]c1=O,-,IIIB,CEM,0.006 µM
Cc1ccc(C)c(CS(=O)c2ccc(Cl)c[n+]2[O-])c1,-,RF,CEM,10 µg/mL
CCOCn1c(Sc2ccccc2)c(CC)c(=O)[nH]c1=O,RT-Y188H,IIIB,CEM,>30 µM
CC(C)OC(=S)Nc1ccc(Cl)c(C(=O)OCC2CC2)c1,RT-L100I,-,CEM,2.135 µM
Cc1ccccc1C(=S)Nc1ccc(Cl)c(C(=O)OC(C)C)c1,RT-Y181C,-,CEM,15 µM
CCOCn1c(Sc2ccccc2)c(C(C)C)c(=O)[nH]c1=S,RT-L100I,IIIB (TIBO 82150) (RT-L100I),CEM,0.03 µM
Cc1ccc(C(C)S(=O)(=O)c2c(C)ccc[n+]2[O-])c(C)c1,RT-E103K,IIIB,CEM,60 µg/mL
Cc1ccsc1C(=O)Nc1ccc(Cl)c(/C=N/OC(C)(C)C)c1,RT-L100I,-,CEM,13 µM
CN1N=C(N)c2cn([C@@H]3O[C@H](COP(=O)(O)O)[C@@H](O)[C@H]3O)c3ncnc1c23,RT-K103N Y181C,A17,CEM + CEM-SS,0.0036 µM
CC(C)OC(=O)c1cc(NC(=S)OC(C)C)ccc1Cl,RT-E138K,-,CEM,1.235 µM
CC(C)=CCOc1cc(NC(=S)c2ccoc2C)ccc1Cl,RT-Y188H,IIIB,CEM,0.045 µM
CCc1c(Sc2ccccc2)n(COCc2ccccc2)c(=S)[nH]c1=O,RT-E138K,IIIB,CEM,0.09 µM
C/C=C/COc1cc(NC(=S)c2ccoc2C)ccc1Cl,RT-V106A,-,CEM,1.7 µM
CCCOC(=S)Nc1ccc(Cl)c(C(=O)OC(C)C)c1,RT-E138K,-,CEM,2.06 µM
CC1=C(C(=S)Nc2ccc(Cl)c(C=NOC(C)(C)C)c2)CCCO1,RT-K103N,-,CEM,0.216 µM
Cc1occc1C(=S)Nc1ccc(Cl)c(SCC=C(Cl)Cl)c1,RT-E138K,TSAO-m3T-resistant (RT E138K),CEM,0.03 µg/mL
C=CCOc1cc(NC(=S)OC(C)C)ccc1C#N,RT-E138K,-,CEM,2.171 µM
COc1ccc(NC(=S)c2ccoc2C)cc1OCC=C(Cl)Cl,RT-E138K,TSAO-m3T-resistant (RT E138K),CEM,0.05 µg/mL
C/C=C/COc1cc(NC(=S)c2ccn(C)c2C)ccc1Cl,RT-Y181C,-,CEM,1.1 µM
Cc1ccc(C)c(C(C)S(=O)(=O)c2c(C)ccc[n+]2[O-])c1,-,IIIB,MT-2,0.2 µg/mL
CC1=C(C(=O)Nc2ccc(Cl)c(OCC=C(Cl)Cl)c2)SCCO1,RT-Y181C,Pyridone-resistant (RT Y181C),CEM,2 µg/mL
CCC1=C(C(=O)Nc2ccc(Cl)c(C(=O)OC(C)C)c2)SCCO1,RT-E138K,TSAO-resistant (RT E138K),CEM,0.6 µg/mL
CCOCn1c(Cc2ccccc2)c(CC)c(=O)[nH]c1=O,RT-Y181C,IIIB,CEM,1.2 µM
CCCCOC(=S)Nc1ccc(Cl)c(C(=O)OC(C)C)c1,-,IIIB,CEM,0.1818 µM
COc1ccc(C)cc1CS(=O)(=O)c1cccc[n+]1[O-],-,HE,CEM,38 µg/mL
Cc1ccc(C)c(CS(=O)(=O)c2cccc[n+]2[O-])c1,RT-L100I,IIIB,CEM,10 µg/mL
C=C(Cl)COc1cc(NC(=S)c2ccsc2C)ccc1C#N,RT-K103N,TIBO R82913-resistant (RT K103N),CEM,0.4 µg/mL
CCCCC(CC)COC(=O)c1cc(NC(=S)OC(C)C)ccc1Cl,RT-E138K,-,CEM,19.4 µM
CO/N=C/c1cc(NC(=S)c2ccoc2C)ccc1OC,RT-V106A,-,CEM,0.46 µM
Cc1ccc(C)c(CS(=O)(=O)c2ccccn2)c1,RT-L100I,IIIB,CEM,10 µg/mL
Cc1occc1C(=S)Nc1ccc(Cl)c(/C=N/OC(C)(C)C)c1,RT-V106A,IIIB,CEM,0.37 µM
CC(C)OC(=S)Nc1ccc(Cl)c(C(=O)OCC(F)(F)F)c1,RT-V106A,-,CEM,>28.11 µM
COc1ccc(NC(=S)C2=C(C)OCCS2)cc1OCC=C(Cl)Cl,RT-K103N,TIBO R82913-resistant (RT K103N),CEM,2.5 µg/mL
CCCCCOC(=O)c1cc(NC(=O)C2=C(C)OCCS2)ccc1Cl,RT-V106A,Nevirapine-resistant (RT V106A),CEM,10 µg/mL
CC(C)c1c(Sc2ccccc2)n(COCCO)c(=O)[nH]c1=O,RT-L100I,IIIB (TIBO 82150) (RT-L100I),CEM,0.28 µM
CC(C)OC(=S)Nc1ccc(Cl)c(C(=O)OC2CCCC2)c1,RT-V106A,-,CEM,1.609 µM
COC(=O)c1cc(NC(=O)C2=C(C)OCCS2)ccc1Cl,RT-Y181C,PYR-resistant (RT Y181C),CEM,>10 µg/mL
CC1=C(C(=S)Nc2ccc(Cl)c(/C=N/OC(C)(C)C)c2)CCO1,-,IIIB,CEM,0.017 µM
Cc1ccc(C)c(CSc2c(Cl)ccc[n+]2[O-])c1,-,HE,CEM,0.2 µg/mL
C/C(Cl)=C/COc1cc(NC(=S)c2ccoc2C)ccc1Cl,-,IIIB,CEM,0.003 µg/mL
CCOCn1c(Cc2ccccc2)c(C(C)C)c(=O)[nH]c1=O,RT-Y181C,IIIB,CEM,0.22 µM
CC(=O)OCCOC(=O)c1cc(NC(=S)OC(C)C)ccc1Cl,RT-Y181C,-,CEM,≥27.79 µM
Cc1ccsc1C(=S)Nc1ccc(Cl)c(C(=O)OC2CCCCC2)c1,RT-E138K,-,CEM,1 µM
CC(C)=CCOc1cc(NC(=S)c2ccoc2C)ccc1Cl,RT-L100I,IIIB,CEM,0.024 µM
C=CCOc1cc(NC(=S)OC(C)C)ccc1Cl,RT-L100I,-,CEM,10.5 µM
CC1=C(C(=O)Nc2cc(C(=O)OC(C)C)c(F)cc2F)SCCO1,-,IIIB,CEM,0.85 µg/mL
CC(C)(C)OC(=O)c1cc(NC(=S)OC(C)(C)C)ccc1Cl,RT-V106A,-,CEM,29.08 µM
CC(C)=CCOc1cc(NC(=S)c2ccsc2C)ccc1Cl,RT-L100I,-,CEM,0.017 µM
CCC(C)OC(=S)Nc1ccc(Cl)c(C(=O)OC(C)(C)C)c1,-,IIIB,CEM,0.087 µM
O=C(Nc1ccc(Cl)c(C(=O)OC2CCCCC2)c1)c1ccccc1F,RT-L100I,-,CEM,≥27 µM
Cc1ccc(C)c(CS(=O)(=O)c2cccc[n+]2[O-])c1,-,RF,CEM,7.2 µg/mL
CC(C)OC(=O)c1cc(NC(=S)SC(C)C)ccc1Cl,RT-Y181C,-,CEM,>30.13 µM
CCOCn1c(Sc2cc(C)cc(C)c2)c(CC)c(=O)[nH]c1=S,-,IIIB,CEM,0.003 µM
CC(C)OC(=O)Oc1cc(NC(=S)OC(C)C)ccc1Cl,RT-V106A,-,CEM,10.55 µM
CC(C)c1c(Sc2ccccc2)n(COCCO)c(=S)[nH]c1=O,RT-E138K,IIIB,CEM,0.15 µM
C#CCO/N=C/c1cc(NC(=O)c2ccoc2C)ccc1Cl,-,IIIB,CEM,3.3 µM
Cc1sccc1C(=S)Nc1ccc(Cl)c(OCCC(C)C)c1,RT-V106A,-,CEM,0.169 µM
CC(C)O/N=C/c1cc(NC(=S)OC(C)C)ccc1Cl,RT-E138K,-,CEM,0.2122 µM
Cc1occc1C(=O)Nc1ccc(Cl)c(SCC=C(Cl)Cl)c1,RT-K103N,TIBO R82913-resistant (RT K103N),CEM,2 µg/mL
CCCCOC(=O)c1cc(NC(=S)OC(C)C)ccc1Cl,RT-Y181C,-,CEM,1.9 µM
Cc1sccc1C(=S)Nc1ccc(Cl)c(OCC=C(Cl)Cl)c1,RT-E138K,TSAO-m3T-resistant (RT E138K),CEM,0.075 µg/mL
CCCOC(=O)c1ccc(C)c(NC(=O)C2=C(C)OCCS2)c1,RT-V106A,Nevirapine-resistant (RT V106A),CEM,>10 µg/mL
CCOC(=O)c1cc(NC(=S)OC(C)C)ccc1C,RT-Y181C,-,CEM,30.2 µM
CCOC(=O)c1cc(NC(=O)C2=C(C)OCCS2)ccc1Cl,-,IIIB,CEM,0.1 µg/mL
Cn1cccc1C(=S)Nc1ccc(Cl)c(/C=N/OC(C)(C)C)c1,RT-V106A,-,CEM,0.28 µM

5 of the rows above, restated:

| structure | mutations | strain | cell line | result |
|---|---|---|---|---|
| CCOCn1c(Sc2cc(C)cc(C)c2)c(CC)c(=O)[nH]c1=S | - | IIIB | CEM | 0.003 µM |
| COC(=O)c1cc(NC(=O)C2=C(C)OCCS2)ccc1Cl | RT-Y181C | PYR-resistant (RT Y181C) | CEM | >10 µg/mL |
| CC(=O)OCCOC(=O)c1cc(NC(=S)OC(C)C)ccc1Cl | RT-Y181C | - | CEM | ≥27.79 µM |
| Cn1cccc1C(=S)Nc1ccc(Cl)c(/C=N/OC(C)(C)C)c1 | RT-V106A | - | CEM | 0.28 µM |
| C#CCO/N=C/c1cc(NC(=O)c2ccoc2C)ccc1Cl | - | IIIB | CEM | 3.3 µM |